Measured values from several laboratories, pooled; numbers as filed in NIAID ChemDB.

All rows: whole-cell or culture tests; agent: Candida albicans

Two numbers with a dash give a range or band. Conditions beyond the fields shown may differ between rows. A number after MIC or MFC names an inhibition level or a share of isolates. An empty or dashed field is not shown. ECn is the concentration giving n% inhibition of infection, replication or growth.

| structure | measure | strain | method | value |
|---|---|---|---|---|
| Cc1ccc(-c2nc3ccccc3c(=O)n2-c2ccc(CONN)cc2)cc1 | MIC100 | MTCC 227 |  | 500 µg/mL |
| COC1CC2CCC(C)C(O)(O2)C(=O)C(=O)N2CCCCC2C(=O)OC(C(C)CC2CCC(O)C(OC)C2)CC(=O)C(C)/C=C(\C)C(O)C(OC)C(=O)C(C)C[C@](C)(N(O)C(=O)NN2CCCCC2)/C=C/C=C/C=C/1C | MFC | RBP1/RBP1 |  | >100 µg/mL |
| CCCCCCCC[N+](C)(C)COC1CCCCCCCCCCC1 | MIC | ATCC 10231 |  | 25.6 µM |
| Cc1cc(C2CCCCC2)n(O)c(=O)c1 | MIC |  |  | 1–4 µg/mL |
| CCCCCCCCCCCCOc1ccc(-c2ccc(C(=O)N[C@H]3CCCNC(=O)C4C[C@H](N)CN4C(=O)C(C(C)O)NC(=O)C(CCc4ccc(O)cc4)NC(=O)C4C[C@@H](O)CN4C(=O)C(C(C)O)NC3=O)cc2)cc1 | MIC | ATCC CCH442 |  | 0.2 µg/mL |
| Cc1ccc(-c2nc3ccccc3c(=O)n2-c2ccc(C(=O)NN3C(=O)/C(=C/c4c(Cl)cccc4Cl)SC3c3ccc(F)cc3)cc2)cc1 | MIC100 | MTCC 227 |  | 500 µg/mL |
| COc1cc(C2CC(c3ccc4c(c3)OCO4)=NN2C=O)cc(OC)c1OC | MIC | DSM 70014 |  | 12.5 µg/mL |
| Cc1ccc(-c2nc3ccccc3c(=O)n2-c2ccc(C(=O)NN3C(=O)/C(=C/c4cccc(Cl)c4)SC3c3ccc(F)cc3)cc2)cc1 | MIC100 | MTCC 227 |  | 1000 µg/mL |
| Cc1nn2c(-c3ccncc3)nnc2sc1=NNc1ccc(Br)cc1 | MIC | ATCC 66027 | broth dilution | 12.5 µg/mL |
| COc1ccc(-c2cc(-c3cc(OC)c(OC)c(OC)c3)nc(NN)n2)cc1OC | MBC | DSM 70014 |  | 50 µg/mL |
| Cc1ccc(-c2nc3ccccc3c(=O)n2-c2ccc(C(=O)NN3C(=O)/C(=C/c4ccc(Cl)cc4)SC3c3ccc(F)cc3)cc2)cc1 | MIC100 | MTCC 227 |  | 500 µg/mL |
| C[C@@H](SC1COC(/C=C/C=C/c2ccc(C#N)cc2F)OC1)[C@](O)(Cn1cncn1)c1ccc(F)cc1F | MIC50 | 139 strains |  | ≤0.008 µg/mL |
| CC[C@H](C)n1ncn(-c2ccc(N3CCN(c4ccc(OC[C@@H]5CO[C@@](Cn6cncn6)(c6ccccn6)O5)cc4)CC3)cc2)c1=O | MIC | GEN-45 |  | ≤0.03 µg/mL |
| CCCCCCCCCCCC[N+](C)(C)COCCCCC | MIC | ATCC 10231 |  | 28.6 µM |
| Cc1nn2c(-c3ccncc3)nnc2s/c1=N/Nc1ccc(F)cc1 | MIC | ATCC 66027 | broth dilution | 50 µg/mL |
| COC1CC2CCC(C)C(O)(O2)C(O)C(O)N2CCCCC2C(=O)OC(C(C)CC2CCC(O)C(OC)C2)CC(=O)C(C)/C=C(\C)C(O)C(OC)C(=O)C(C)CC(C)/C=C/C=C/C=C/1C | MFC | RBP1/RBP1 |  | >100 µg/mL |
| COc1cc(O)c2c(c1)C(=O)c1c(cc3c(c1O)-c1c(cc(C)c(C(=O)NCC(=O)O)c1O)[C@H](OC1OC(C)C(N(C)C)C(OC4OCC(O)C(O)C4O)C1O)[C@H]3O)C2=O | MIC | ATCC 32354 (B311) |  | 3.1 µg/mL |
| COc1ccc(C2=NN(c3ccc([N+](=O)[O-])cc3)C(c3cc(OC)c(OC)c(OC)c3)C2)cc1OC | MBC | DSM 70014 |  | 200 µg/mL |
| Cc1ccc(-c2nc3ccccc3c(=O)n2-c2ccc(C(=O)NN3C(=O)/C(=C/c4ccccc4Cl)SC3c3ccc(F)cc3)cc2)cc1 | MIC100 | MTCC 227 |  | 100 µg/mL |
| COc1ccc(C2=NN(C(C)=O)C(c3cc(OC)c(OC)c(OC)c3)C2)cc1OC | MIC | DSM 70014 |  | 12.5 µg/mL |
| CCCCCCCCCCCC[N+](C)(C)COCC(CC)CC | MBC | ATCC 10231 |  | 27.5 µM |
| CC[C@@H](C)n1ncn(-c2ccc(N3CCN(c4ccc(OC[C@H]5CO[C@](Cn6cncn6)(c6ccccn6)O5)cc4)CC3)cc2)c1=O | MIC | GEN-45 |  | ≤0.03 µg/mL |
| Cc1nn2c(-c3ccncc3)nnc2sc1=NNc1ccc(Cl)cc1 | MIC | ATCC 10231 | broth dilution | >100 µg/mL |
| COC1=CC(=O)C[C@@H](C)[C@]12Oc1c(Cl)c(OC)cc(OC)c1C2=O | MIC100 | MTCC 227 |  | 1000 µg/mL |
| CCCCCCCCCCCC[N+](C)(C)CSCCC | MIC | ATCC 10231 |  | 296 µM |
| CCCCCOc1ccc(-c2ccc(-c3ccc(C(=O)N[C@H]4C[C@@H](O)[C@@H](O)NC(=O)[C@@H]5[C@@H](O)[C@@H](C)CN5C(=O)[C@H]([C@H](C)O)NC(=O)[C@H]([C@H](O)[C@@H](O)c5ccc(O)cc5)NC(=O)[C@@H]5C[C@@H](O)CN5C(=O)[C@H]([C@H](C)O)NC4=O)cc3)cc2)cc1 | MIC | Y58 |  | 0.04 µg/mL |
| Cc1nn2c(-c3ccncc3)nnc2s/c1=N/Nc1ccc(S(N)(=O)=O)cc1 | MIC | ATCC 10231 | broth dilution | >100 µg/mL |
| COc1ccc(Nc2nnc(Cn3ncc4ccccc4c3=O)s2)cc1 | MIC | ATCC 10231 |  | 32 µg/mL |
| COc1cc(C2C=C(c3ccc4c(c3)OCO4)NC(=S)N2)cc(OC)c1OC | MBC | DSM 70014 |  | 200 µg/mL |
| CCCCCCCCOC[N+](C)(C)CCCCCCCC | MBC | ATCC 10231 |  | 298 µM |
| COc1ccc(C2=CC(c3cc(OC)c(OC)c(OC)c3)NC(=S)N2)cc1OC | MBC | DSM 70014 |  | 100 µg/mL |
| O[C@](Cn1cncn1)(Cn1cnc(/C=C/c2ccc(OCC(F)(F)C(F)F)cc2)n1)c1ccc(F)cc1F | EC50 | CA033 |  | 0.5 µM |
| Cc1ccc(-c2nc3ccccc3c(=O)n2-c2ccc(C(=O)NN3C(=O)/C(=C/c4ccccc4[N+](=O)[O-])SC3c3ccc(F)cc3)cc2)cc1 | MIC100 | MTCC 227 |  | 100 µg/mL |
| CCCCCOc1ccc(-c2ccc(-c3ccc(C(=O)N[C@H]4CCCNC(=O)[C@@H]5C[C@H](N)CN5C(=O)[C@H](CCC(=O)O)NC(=O)C(CCc5ccc(O)cc5)NC(=O)[C@@H]5C[C@@H](O)CN5C(=O)[C@H]([C@@H](C)O)NC4=O)cc3)cc2)cc1 | MIC | ATCC 10231 |  | 0.39 µg/mL |
| COc1ccc(C2=CC(c3cc(OC)c(OC)c(OC)c3)N=C(SCC(C)=O)N2)cc1OC | MBC | DSM 70014 |  | 50 µg/mL |
| O=c1c2ccccc2cnn1Cc1n[nH]c(=S)n1CCc1ccccc1 | MIC | ATCC 10231 |  | 32 µg/mL |
| CCCCCCCCCCCC[N+](C)(C)COCCCC | MBC | ATCC 10231 |  | 74 µM |
| COc1ccc(-n2c(CCn3ncc4ccccc4c3=O)n[nH]c2=S)cc1 | MIC | ATCC 10231 |  | 64 µg/mL |
| C[C@H]1[C@H](O)[C@@H](C)/C=C/C=C/C=C/C=C/C=C/C=C/C=C/[C@H](O[C@@H]2O[C@H](C)[C@@H](O)[C@H](N)[C@@H]2O)C[C@@H]2O[C@](O)(C[C@@H](O)C[C@@H](O)CC[C@H](O)[C@@H](O)C[C@@H](O)CC(=O)O[C@H]1C)C[C@H](O)[C@H]2C(=O)O | MFC | ATCC 10231 | visual reading | 1 µg/mL |
| CCCCCCCCCCCC[N+](C)(C)COC1CCCCCC1 | MBC | ATCC 10231 |  | 26.6 µM |
| COc1ccc(C2=CC(c3cc(OC)c(OC)c(OC)c3)NC(=S)N2c2ccccc2)cc1OC | MBC | DSM 70014 |  | 200 µg/mL |
| O=c1c2ccccc2cnn1CCc1nnc(Nc2ccccc2)s1 | MIC | ATCC 10231 |  | 128 µg/mL |
| CN[C@@H]1[C@H](O[C@@H]2O[C@H](CO)[C@@H](O)[C@H](S(=O)(=O)O)[C@H]2O)[C@@H](O)[C@H](O[C@H]2c3cc(C)c(C(=O)N[C@H](CO)C(=O)O)c(O)c3-c3c(cc4c(c3O)C(=O)c3cc(OC)cc(O)c3C4=O)[C@@H]2O)O[C@@H]1C | MIC | 8302-14 |  | 12.5 µg/mL |
| CCCCCOc1ccc(-c2ccc(-c3ccc(C(=O)N[C@H]4CCCNC(=O)C5C[C@H](NC(=O)NCCN(C)C)CN5C(=O)C(C(C)O)NC(=O)C(CCc5ccc(O)cc5)NC(=O)C5C[C@@H](O)CN5C(=O)C(C(C)O)NC4=O)cc3)cc2)cc1 | MIC | ATCC CCH442 |  | 0.39 µg/mL |
| COc1cc(/C=C/C(=O)c2ccc3c(c2)OCO3)cc(OC)c1OC | MIC | DSM 70014 |  | 25 µg/mL |
| O=c1c2ccccc2cnn1CCc1nnc(NCCc2ccccc2)s1 | MIC | ATCC 10231 |  | 32 µg/mL |
| OC(Cn1cncn1)(Cn1cncn1)c1ccc(F)cc1F | MIC | E81113 |  | 50 µg/mL |
| Cc1ccc(-c2nc3ccccc3c(=O)n2-c2ccc(C(=O)NN3C(=O)/C(=C/c4ccc(Br)cc4)SC3c3ccc(F)cc3)cc2)cc1 | MIC100 | MTCC 227 |  | 1000 µg/mL |
| CCCCCCCC[N+](C)(C)COCC(CC)CCCC | MIC | ATCC 10231 |  | 149 µM |
| COc1ccc(-c2ccc(C(=O)N[C@H]3CCCNC(=O)C4C[C@H](N)CN4C(=O)C(C(C)O)NC(=O)C(CCc4ccc(O)cc4)NC(=O)C4C[C@@H](O)CN4C(=O)C(C(C)O)NC3=O)cc2)cc1 | MIC | ATCC 10231 |  | 6.25 µg/mL |
| C=CC(C)(/C=C\c1ccc(O)cc1)c1ccc(O)cc1 | MIC | IFO 1594 |  | 50 µg/mL |
| CCCCCOc1ccc(-c2ccc(-c3ccc(C(=O)N[C@H]4CCCNC(=O)C5C[C@H](N)N5C(=O)C(C(C)O)NC(=O)C(CCc5ccc(O)cc5)NC(=O)C5C[C@@H](O)CN5C(=O)C(C(C)O)NC4=O)cc3)cc2)cc1 | MIC | ATCC 10231 |  | 0.2 µg/mL |
| O=c1c2ccccc2cnn1CCc1nnc(Nc2ccc(Cl)cc2)s1 | MIC | ATCC 10231 |  | 128 µg/mL |